A mixed list of measured activities; the numbers were collected in NIAID ChemDB.

Shared fields: cytotoxicity tests; cell line: MT-4; measure: CC50

Rows are shuffled and stem from different studies.

SMILES,value
COc1ccc(-c2oc3c4c(cc(O)c3c(=O)c2CC=C(C)C)OC(C)(C)C=C4)c(OC)c1,>500 µg/mL
CO[C@]12CC(COC(C)=O)=C[C@H]3[C@@H]4C(C)(C)[C@]4(OC(C)=O)[C@H](OC(C)=O)[C@@H](C)[C@]3(O)[C@@H]1C=C(C)C2=O,>125 µg/mL
C/C=C(/C)C(=O)O[C@]12C(C3C=C(CO)C[C@]4(O)C(=O)C(C)=CC4[C@@]3(O)[C@H](C)[C@H]1OC(C)=O)C2(C)C,>500 µg/mL
Cc1cn([C@H]2C[C@H](F)[C@@H](CO)O2)c(=O)[nH]c1=O,0.197 µM
CCC(C)Oc1cc(=O)[nH]c(Sc2ccc(F)cc2)n1,108 µM
CSc1nc(N)c(C)c(C(F)c2ccccc2)n1,>25 µM
COC(=O)[C@@H](NC(=O)Cc1ccccc1)[C@@H]1N[C@@H](C(=O)NCCNC(=O)[C@@H]2N[C@@H]([C@H](NC(=O)Cc3ccccc3)C(=O)OC)SC2(C)C)C(C)(C)S1,>100 µM
O=c1cnn([C@@H]2O[C@H](CO)[C@@H](O)[C@H]2O)c(=O)[nH]1,0.2 µM
CCCCCCCCCC(=O)O[C@@]12[C@H](OC(C)=O)[C@@H](C)[C@@]3(O)[C@@H](C=C(COC(C)=O)C[C@]4(O)C(=O)C(C)=C[C@@H]34)[C@@H]1C2(C)C,>31.3 µg/mL
CCOCn1c(Sc2cc(C)cc(C)c2)c(CC)c(=O)[nH]c1=O,>100 µM
C1CNCCNCCCNCCNC1,>100 µM
Cc1cn([C@H]2C[C@H](N=[N+]=[N-])[C@@H](COP(=O)(O)C(=O)OCCSC(=O)C(C)(C)C)O2)c(=O)[nH]c1=O,>100 µM
CCc1c(Cc2c(Cl)cccc2Cl)nc(SCc2ccc([N+](=O)[O-])cc2)[nH]c1=O,>55.55 µM
NC(=O)c1ncn([C@@H]2O[C@H](CO)[C@@H](O)[C@H]2O)n1,31 µM
CCc1c(Cc2cc(C)cc(C)c2)n(COCCO)c(=O)[nH]c1=O,256 µM
Oc1ccc2ccccc2c1CN1CCN(Cc2c(O)ccc3ccccc23)CC1,>100 µM
CNc1nc(N)c(C)c(C(=O)c2ccccc2)n1,>25 µM
COc1ccc2ccc(OC(C)=O)c(Cc3c[nH]c4ccc(OC)cc34)c2c1,47 µM
Cc1cn([C@H]2C[C@H](N=[N+]=[N-])[C@@H](CO)O2)c(=O)[nH]c1=O,215 µM
COc1ccc([C@@H]2COc3c(ccc4c3C=CC(C)(C)O4)C2)c(OC)c1,>100 µg/mL
CCc1c(C(C)c2c(F)cccc2F)nc(SC/C=C/c2ccc(C#N)cc2)[nH]c1=O,27.23 µM
CCC(C)Oc1cc(N)nc(Sc2cc(C)cc(C)c2)n1,88 µM
CCc1c(Cc2c(F)cccc2F)nc(SCCc2ccc(OC)cc2)[nH]c1=O,>60.1 µM
O=C(CN1C(=O)c2cccn2S(=O)(=O)c2ccccc21)OCc1ccccc1,>300 µM
CSc1nc(N)c(C)c(C(Cl)c2ccccc2)n1,>25 µM
CCC(C)Oc1cc(=O)[nH]c(Sc2cccc(Cl)c2)n1,≥300 µM
CCCCCCCCCC(=O)O[C@@]12[C@H](OC(C)=O)[C@@H](C)[C@@]3(O)[C@@H](C=C(CO)C[C@]4(O)C(=O)C(C)=C[C@@H]34)[C@@H]1C2(C)C,>62.5 µg/mL
CCCCCCCCCC(=O)O[C@@H]1[C@@H](C)[C@]2(O)[C@@H]3C=C(C)C(=O)[C@@H]3CC(COC(C)=O)=C[C@H]2[C@@H]2C(C)(C)[C@]12OC(C)=O,>1000 µg/mL
CCC(C)Oc1cc(N)nc(Sc2cccc(N)c2)n1,112 µM
CC1(C)S[C@H]([C@H](NC(=O)c2ccccc2-c2ccccc2)C(=O)NCC(=O)O)N[C@H]1C(=O)NCCNC(=O)[C@@H]1N[C@@H]([C@H](NC(=O)c2ccccc2-c2ccccc2)C(=O)NCC(=O)O)SC1(C)C,>100 µM
O=c1cc(Sc2ccccc2)nc(Cl)[nH]1,200 µM
CCCCCCCCCC(=O)O[C@@H]1[C@@H](C)[C@@]2(O)C(C=C(CO)C[C@]3(O)C(=O)C(C)=CC23)C2C(C)(C)[C@@]21OC(=O)C(C)CC,>31.3 µg/mL
O=c1[nH]c(=O)n([C@H]2C[C@H](F)[C@@H](CO)O2)cc1CO,134 µM
c1ccc2c(c1)Cn1ccnc1-c1nnc(-c3ccncc3)n1-2,>300 µM
CCc1c(Sc2cc(C)cc(C)c2)n(COCCO)c(=O)[nH]c1=O,155 µM
CC(C)=CCN1C(=O)c2cccn2S(=O)(=O)c2cc(Cl)ccc21,>300 µM
CCOC(=O)P(=O)(OCc1ccc(Cl)cc1)OCc1ccc(Cl)cc1,>10 µM
C/C=C(\C)C(=O)O[C@@]12[C@H](O)[C@@H](C)[C@@]3(O)[C@@H](C=C(COC(=O)CCCCCCC/C=C\C/C=C\CCCCC)C[C@]4(O)C(=O)C(C)=C[C@@H]34)[C@@H]1C2(C)C,>62.5 µg/mL
CCCCC/C=C\C/C=C\CCCCCCCC(=O)OCC1=C[C@H]2[C@@H]3C(C)(C)[C@]3(OC(C)=O)[C@H](O)[C@@H](C)[C@]2(O)[C@@H]2C=C(C)C(=O)[C@@]2(O)C1,>62.5 µg/mL
CCNC(=O)[C@@H](NC(=O)c1ccccc1Oc1ccccc1)[C@@H]1N[C@@H](C(=O)NCCNC(=O)[C@@H]2N[C@@H]([C@H](NC(=O)c3ccccc3Oc3ccccc3)C(=O)NCC)SC2(C)C)C(C)(C)S1,>100 µM
CCCCCCCCOC(=O)P(=O)(OCc1ccc(Cl)cc1)OCc1ccc(Cl)cc1,>10 µM
CCC(C)Oc1cc(N)nc(Sc2ccccc2N)n1,200 µM
C1CNCCNCCCN(CCCN2CCCNCCNCCCNCC2)CCNC1,>100 µM
COc1cc(O)c2c(=O)c(OC)c(-c3ccc(O)cc3)oc2c1,51 µg/mL
O=C(OCc1ccccc1)N(CCCCCN1CCCN(CCCCCN(Cc2ccccc2)C(=O)OCc2ccccc2)CCN(CCCCCN(Cc2ccccc2)C(=O)OCc2ccccc2)CCCN(CCCCCN(Cc2ccccc2)C(=O)OCc2ccccc2)CC1)Cc1ccccc1,>50 µM
CCCCCCCCOC(=O)P(=O)(OC[C@H]1O[C@@H](n2cc(C)c(=O)[nH]c2=O)C[C@@H]1N=[N+]=[N-])OC[C@H]1O[C@@H](n2cc(C)c(=O)[nH]c2=O)C[C@@H]1N=[N+]=[N-],>1 µM
COc1ccc(CSc2nc(Cc3c(Cl)cccc3Cl)c(C)c(=O)[nH]2)cc1,>25 µM
O=S1(=O)c2ccccc2NC(CO)c2cccn21,200 µM
NCCCCCCN1CCCN(CCCCCCN)CCCN(CCCCCCN)CCN(CCCCCCN)CCC1,50 µM
Oc1ccc2cc(Br)ccc2c1CN1CCN(Cc2c(O)ccc3cc(Br)ccc23)CC1,>100 µM
CCOCn1c(Sc2cc(C)cc(C)c2)c(CC)c(=O)[nH]c1=S,>100 µM
COc1ccc2ccc(O)c(CN3CCN(Cc4c(O)ccc5ccc(OC)cc45)CC3)c2c1,>100 µM
CCCCc1ccc(CSc2nc(Cc3ccc(C#N)cc3)c(C)c(=O)[nH]2)cc1,>79.87 µM
CCC(C)Oc1cc(N)nc(S(=O)(=O)c2cc(C)cc(C)c2)n1,70 µM
O=C1CC(c2ccc(O)cc2)Oc2cc(O)ccc21,>100 µg/mL
CC1(C)S[C@H]([C@H](NC(=O)Cc2ccccc2)C(=O)NCc2ccccn2)N[C@H]1C(=O)NCCNC(=O)[C@@H]1N[C@@H]([C@H](NC(=O)Cc2ccccc2)C(=O)NCc2ccccn2)SC1(C)C,>100 µM
Cc1c(Cc2c(F)cccc2F)nc(SC/C=C/c2ccc([N+](=O)[O-])cc2)[nH]c1=O,11.65 µM
CC(C)N1C(=O)c2cccn2S(=O)(=O)c2ccc(Cl)cc21,>300 µM
CSc1nc(N)c(C)c(C(O)c2ccccc2)n1,>25 µM
c1ccc(CNCCCCCN2CCCN(CCCCCNCc3ccccc3)CCN(CCCCCNCc3ccccc3)CCCN(CCCCCNCc3ccccc3)CC2)cc1,>10 µM
CC1(C)S[C@H]([C@H](NC(=O)Cc2ccccc2)C(=O)NCC2CCCCC2)N[C@H]1C(=O)NCCNC(=O)[C@@H]1N[C@@H]([C@H](NC(=O)Cc2ccccc2)C(=O)NCC2CCCCC2)SC1(C)C,>100 µM
Cc1c(Cc2ccc(C#N)cc2)nc(SCc2ccc(C#N)cc2)[nH]c1=O,>67.2 µM
CCOC(=O)C1c2cccn2Sc2ccccc2N1C(=O)CCl,>300 µM
CCC(C)Oc1cc(=O)[nH]c(S(=O)(=O)c2ccccc2)n1,109 µM
NCCCN1CCCN(CCCN)CCCN(CCCN)CCN(CCCN)CCC1,>50 µM
Cc1cn([C@H]2C=C[C@@H](CO)O2)c(=O)[nH]c1=O,15 µM
c1cc(CN2CCNCCNCCNCC2)cc(CN2CCNCCNCCNCC2)c1,6.4 µM

A second listing of 10 rows from above:

| SMILES | value |
|---|---|
| O=c1[nH]c(=O)n([C@H]2C[C@H](F)[C@@H](CO)O2)cc1CO | 134 µM |
| CSc1nc(N)c(C)c(C(Cl)c2ccccc2)n1 | >25 µM |
| CCNC(=O)[C@@H](NC(=O)c1ccccc1Oc1ccccc1)[C@@H]1N[C@@H](C(=O)NCCNC(=O)[C@@H]2N[C@@H]([C@H](NC(=O)c3ccccc3Oc3ccccc3)C(=O)NCC)SC2(C)C)C(C)(C)S1 | >100 µM |
| NCCCN1CCCN(CCCN)CCCN(CCCN)CCN(CCCN)CCC1 | >50 µM |
| O=c1cc(Sc2ccccc2)nc(Cl)[nH]1 | 200 µM |
| CCOC(=O)P(=O)(OCc1ccc(Cl)cc1)OCc1ccc(Cl)cc1 | >10 µM |
| C1CNCCNCCCN(CCCN2CCCNCCNCCCNCC2)CCNC1 | >100 µM |
| CSc1nc(N)c(C)c(C(F)c2ccccc2)n1 | >25 µM |
| CC(C)=CCN1C(=O)c2cccn2S(=O)(=O)c2cc(Cl)ccc21 | >300 µM |
| COC(=O)[C@@H](NC(=O)Cc1ccccc1)[C@@H]1N[C@@H](C(=O)NCCNC(=O)[C@@H]2N[C@@H]([C@H](NC(=O)Cc3ccccc3)C(=O)OC)SC2(C)C)C(C)(C)S1 | >100 µM |

CCn is the concentration with n% toxicity to the cells.